Read-outs that look alike come from different tables or passages of the source.
Columns and labels:
SARS-CoV-2 [1] = assay type: cell-based; settings: for SI 24 h: Calu-3, ratio of CC50 and EC50, 24 hpi; for SI 48 h: Calu-3, ratio of CC50 and EC50, 48 hpi
SARS-CoV-2 [2] = experiment: SARS-CoV-2 replication inhibition in Vero E6 cells (PFU titration); settings: Vero E6, ratio of CC50 and EC50, 24 hpi

SMILES | SI 24 h (SARS-CoV-2 [1]) | SI 48 h (SARS-CoV-2 [1]) | SI 24 h (SARS-CoV-2 [2])
Cc1cn([C@H]2C[C@H](N)[C@@H](C[Se]c3ccccc3)O2)c(=O)[nH]c1=O [R3a] | 31.4 | 54.5 | 88.9
Cc1ccc([Se]C[C@H]2O[C@@H](n3cc(C)c(=O)[nH]c3=O)C[C@@H]2N)cc1 [R3b] | 52.4 | 150 | 67.3
COc1ccc([Se]C[C@H]2O[C@@H](n3cc(C)c(=O)[nH]c3=O)C[C@@H]2N)cc1 [R3c] | – | 58.3 | 60.4
Cc1cn([C@H]2C[C@H](N)[C@@H](C[Se]c3ccc(Cl)cc3)O2)c(=O)[nH]c1=O [R3d] | 24.1 | 92.2 | 80.3
Cc1cn([C@H]2C[C@H](N)[C@@H](C[Se]c3cccc4ccccc34)O2)c(=O)[nH]c1=O [R3e] | 81.4 | 67.7 | 101
Cc1cn([C@H]2C[C@H](N)[C@@H](C[Te]c3ccccc3)O2)c(=O)[nH]c1=O [R3f] | 23.2 | 9.18 | 19.5
Cc1ccc([Te]C[C@H]2O[C@@H](n3cc(C)c(=O)[nH]c3=O)C[C@@H]2N)cc1 [R3n] | 58.2 | 26.7 | 9.84
COc1ccc([Te]C[C@H]2O[C@@H](n3cc(C)c(=O)[nH]c3=O)C[C@@H]2N)cc1 [R3o] | 4.97 | 15.5 | 8.06
Cc1cn([C@H]2C[C@H](N)[C@@H](C[Te]c3ccc(Cl)cc3)O2)c(=O)[nH]c1=O [R3p] | 8.14 | 2.78 | 10.2
Cc1cn([C@H]2C[C@H](N)[C@@H](C[Te]c3cccc4ccccc34)O2)c(=O)[nH]c1=O [R3q] | 16.9 | 39.8 | 7.98

— paper PMC10537738, “Antiviral Effect of 5′-Arylchalcogeno-3-aminothymidine Derivatives in SARS-CoV-2 Infection” (Molecules, 2023)
